Assay results taken from publication PMC3829993.

What was measured:
[1] = test system: NC(=O)C1=CN([C@@H]2O[C@H](COP(=O)(O)OP(=O)(O)OC[C@H]3O[C@@H](n4cnc5c(N)ncnc54)[C@H](OP(=O)(O)O)[C@@H]3O)[C@@H](O)[C@H]2O)C=CC1; test: purified protein; settings: varied: cofactor
[2] = test system: NC(=O)C1=CN([C@@H]2O[C@H](COP(=O)(O)OP(=O)(O)OC[C@H]3O[C@@H](n4cnc5c(N)ncnc54)[C@H](O)[C@@H]3O)[C@@H](O)[C@H]2O)C=CC1; test: purified protein; settings: varied: cofactor

Substance | Km [1] [M x 10^-6] | kcat [1] [s⁻¹] | kcat/Km [1] [M⁻¹ s⁻¹] | Km [2] [M x 10^-6] | kcat [2] [s⁻¹] | kcat/Km [2] [M⁻¹ s⁻¹]
SMFMO (Stenotrophomonas maltophilia K279a; H202T) | 4.2 ± 0.7 | 0.012 ± 0.0004 | 3000 | 14.1 ± 2.9 | 0.012 ± 0.0008 | 857
SMFMO (Stenotrophomonas maltophilia K279a; Q201R) | 8.3 ± 1.6 | 0.007 ± 0.0005 | 875 | 21.2 ± 4.3 | 0.031 ± 0.003 | 1480
